Laboratory results: PubChem BioAssay AID624099 (ICCB-Longwood, 2012)
Screen: 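Host factors E2 relies on to silence an HPV18 LCR reporter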 (primary screen). Cell system: human C33A cervical carcinoma cells (HPV-negative) stably expressing BPV1 E2 and an HPV18 LCR luciferase reporter. Reagent: siRNA pool against human genes, 40 nM. Time to read-out: 72 h. Detection: 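HPV18 LCR reporter light per well, converted to plate-wise z-scores that exclude control wells, and averaged over triplicate plates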. Direction: mean z-score and z-score: higher = stronger reporter signal, weaker E2 silencing. Active means: 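Hit if mean z-score reaches 2 and two or more of three replicate z-scores also reach 2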.
The whole screen tested about 21,000 reagents; shown is an unselected part. In the full data, 497 (2.4%) are marked active. 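Higher z means weaker E2 silencing; only reporter increases were scored, and knock-downs that hurt cell survival may mask genuine repressor factors.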 The numbers tell different reagents against one gene apart. No sequences are given here.

Target gene | pool no. | mean z-score | z-score, replicate A | z-score, replicate B | z-score, replicate C | Call
PDIA2 (protein disulfide isomerase family A member 2) | 1 | -1.17 | -1.49 | -1.29 | -0.71 | inactive
ACRBP (acrosin binding protein) | 1 | -0.65 | -0.54 | -0.63 | -0.77 | inactive
TRAF2 (TNF receptor associated factor 2) | 1 | -0.21 | -0.24 | -0.38 | -0.02 | inactive
GNG11 (G protein subunit gamma 11) | 1 | 3.03 | 2.97 | 3.31 | 2.82 | active
HOXC4 (homeobox C4) | 1 | 0.57 | 0.72 | 0.67 | 0.34 | inactive
DPYSL5 (dihydropyrimidinase like 5) | 1 | 1.78 | 1.79 | 1.89 | 1.68 | inactive
CHL1 (cell adhesion molecule L1 like) | 1 | 0.62 | 0.65 | 0.8 | 0.41 | inactive
PRRT2 (proline rich transmembrane protein 2) | 1 | 0.06 | 0.1 | -0.55 | 0.64 | inactive
FAM20A (FAM20A golgi associated secretory pathway pseudokinase) | 1 | 0.04 | -0.22 | -0.07 | 0.42 | inactive
KIF26B (kinesin family member 26B) | 1 | -0.29 | 0.05 | 0.3 | -1.22 | inactive
KIF26B (kinesin family member 26B) | 2 | 1.17 | 1.09 | 1.15 | 1.28 | inactive
CYB5D1 (cytochrome b5 domain containing 1) | 1 | -1.27 | -1.32 | -1.34 | -1.16 | inactive
DTWD2 (DTW motif tRNA-uridine aminocarboxypropyltransferase 2) | 1 | -0.02 | 0.28 | -0.02 | -0.32 | inactive
PAPOLA (poly(A) polymerase alpha) | 1 | -0.26 | -0.37 | -0.11 | -0.29 | inactive
GINS4 (GINS complex subunit 4) | 1 | 1.49 | 1.42 | 1.76 | 1.29 | inactive
INO80 (INO80 complex ATPase subunit) | 1 | -1.05 | -1.14 | -1.29 | -0.72 | inactive
GDF10 (growth differentiation factor 10) | 1 | 0.41 | 0.84 | 0.24 | 0.16 | inactive
DLEU7 (deleted in lymphocytic leukemia 7) | 1 | 0.63 | 0.27 | 0.98 | 0.65 | inactive
ZNF562 (zinc finger protein 562) | 1 | 0.36 | 0.09 | 0.33 | 0.67 | inactive
LINC01018 (long independently transcribed non-coding RNA 1018) | 1 | -1.08 | -1.11 | -0.97 | -1.15 | inactive
TOP1MT (DNA topoisomerase I mitochondrial) | 1 | 2.55 | 3.02 | 2.51 | 2.13 | active
CLPX | 1 | 0.87 | 0.75 | 0.72 | 1.15 | inactive
ALPL (alkaline phosphatase, biomineralization associated) | 1 | 0.1 | 0.23 | 0.06 | 0 | inactive
MRPL21 (mitochondrial ribosomal protein L21) | 1 | 0.05 | -0.14 | 0.05 | 0.23 | inactive
LOC345378 (retired record) | 1 | 0.33 | -0.04 | 0.63 | 0.41 | inactive
CDX4 (caudal type homeobox 4) | 1 | -0.51 | -0.93 | -0.24 | -0.36 | inactive
FLYWCH1L (retired record) | 1 | 2.27 | 2.03 | 2.33 | 2.47 | active
MPC2 | 1 | -0.5 | -0.68 | -0.59 | -0.23 | inactive
ADAMTS10 (ADAM metallopeptidase with thrombospondin type 1 motif 10) | 1 | 0.16 | 0.23 | -0.05 | 0.31 | inactive
APEX1 (apurinic/apyrimidinic endodeoxyribonuclease 1) | 1 | -0.84 | -1.05 | -0.57 | -0.88 | inactive
KLHDC7B (kelch domain containing 7B) | 1 | 2.88 | 3 | 2.67 | 2.97 | active
USP29 (ubiquitin specific peptidase 29) | 1 | 0.1 | -0.02 | 0.06 | 0.27 | inactive

Continued; the last 5 above are carried over.
Target gene | pool no. | mean z-score | z-score, replicate A | z-score, replicate B | z-score, replicate C | Call
MPC2 | 1 | -0.5 | -0.68 | -0.59 | -0.23 | inactive
ADAMTS10 (ADAM metallopeptidase with thrombospondin type 1 motif 10) | 1 | 0.16 | 0.23 | -0.05 | 0.31 | inactive
APEX1 (apurinic/apyrimidinic endodeoxyribonuclease 1) | 1 | -0.84 | -1.05 | -0.57 | -0.88 | inactive
KLHDC7B (kelch domain containing 7B) | 1 | 2.88 | 3 | 2.67 | 2.97 | active
USP29 (ubiquitin specific peptidase 29) | 1 | 0.1 | -0.02 | 0.06 | 0.27 | inactive
PDHX (pyruvate dehydrogenase complex component X) | 1 | -0.24 | -0.34 | -0.19 | -0.2 | inactive
LINC00705 (long independently transcribed non-coding RNA 705) | 1 | 0.08 | -0.05 | 0.2 | 0.1 | inactive
SLC18A2 | 1 | -0.04 | 0.24 | -0.14 | -0.24 | inactive
SLC8A3 | 1 | -0.38 | -0.05 | -0.56 | -0.53 | inactive
TMEM174 (transmembrane protein 174) | 1 | 0.67 | 0.78 | 0.62 | 0.62 | inactive
STRC (stereocilin) | 1 | -0.46 | -0.22 | -0.57 | -0.59 | inactive
TRIM49 (tripartite motif containing 49) | 1 | 0.51 | 0.22 | 0.96 | 0.33 | inactive
LOC727983 (retired record) | 1 | 0.6 | 0.6 | 0.63 | 0.59 | inactive
MCEMP1 (mast cell expressed membrane protein 1) | 1 | -1.41 | -1.22 | -1.07 | -1.94 | inactive
ANKRD60 (ankyrin repeat domain 60) | 1 | -0.29 | -0.32 | -0.36 | -0.18 | inactive
CAMK2N1 (calcium/calmodulin dependent protein kinase II inhibitor 1) | 1 | 1.31 | 1.58 | 1.57 | 0.77 | inactive
LOC728148 (retired record) | 1 | -0.72 | -0.6 | -0.81 | -0.74 | inactive
BNIP3L (BCL2 interacting protein 3 like) | 1 | -0.6 | -0.49 | -0.59 | -0.72 | inactive
FCGR3B (Fc gamma receptor IIIb) | 1 | -0.19 | -0.09 | -0.19 | -0.28 | inactive
CBX3 (chromobox 3) | 1 | -0.93 | -0.67 | -0.96 | -1.14 | inactive
ZDHHC23 (zDHHC palmitoyltransferase 23) | 1 | 0.68 | 0.63 | 0.91 | 0.51 | inactive
UNC13B (unc-13 homolog B) | 1 | 0.48 | 0.34 | 0.83 | 0.28 | inactive
ITPRIPL2 (ITPRIP like 2) | 1 | -0.11 | 0.07 | 0.2 | -0.6 | inactive
BFAR (bifunctional apoptosis regulator) | 1 | -1.06 | -1.09 | -1.13 | -0.94 | inactive
ZNF606 (zinc finger protein 606) | 1 | -0.5 | -0.36 | -0.59 | -0.57 | inactive
ZNF644 (zinc finger protein 644) | 1 | 0.96 | 1.08 | 0.82 | 0.99 | inactive
TMEM62 (transmembrane protein 62) | 1 | -0.22 | -0.33 | -0.25 | -0.07 | inactive
CNTROB | 1 | 3.75 | 3.32 | 4.03 | 3.9 | active
EXD2 (exonuclease 3'-5' domain containing 2) | 1 | 0.19 | -0.18 | 0.12 | 0.64 | inactive
SFPQ (splicing factor proline and glutamine rich) | 1 | 2.63 | 2.23 | 2.19 | 3.47 | active
